Measured values from several laboratories, pooled; numbers as filed in NIAID ChemDB.

Shared fields: growth or infection tests; agent: Aspergillus fumigatus

Conditions beyond the fields shown may differ between rows.

{"SMILES": "CCc1nc(N)nc(N)c1-c1ccc(Cl)cc1", "strain": "20 isolates", "read-out": "Geometric mean MIC", "value": ">4 µg/mL"}
{"SMILES": "CC(=O)OC[C@H]1O[C@@H](n2[nH]c(-c3ccccc3)[n+](/N=C/c3ccc(Cl)cc3)c2=S)[C@H](OC(C)=O)[C@@H](OC(C)=O)[C@@H]1OC(C)=O", "read by": "agar diffusion / agar", "read-out": "zone", "tested at": "5 mg/mL", "value": "6–10 mm"}
{"SMILES": "O=[N+]([O-])c1ccc(C[Se]c2nnnn2C2CCCCC2)c([N+](=O)[O-])c1", "strain": "231", "read by": "broth dilution", "conditions": "24 h", "read-out": "EC50", "value": ">500 µM"}
{"SMILES": "CC(=O)OC[C@H]1O[C@@H](Sc2nnc(-c3cccnc3)n2/N=C/c2ccc(Cl)cc2)[C@H](OC(C)=O)[C@@H](OC(C)=O)[C@@H]1OC(C)=O", "read by": "agar diffusion / agar", "read-out": "zone", "tested at": "1 mg/mL", "value": "1–5 mm"}
{"SMILES": "C[C@H]1[C@H](O)[C@@H](C)/C=C/C=C/C=C/C=C/C=C/C=C/C=C/[C@H](O[C@@H]2O[C@H](C)[C@@H](O)[C@H](N)[C@@H]2O)C[C@@H]2O[C@](O)(C[C@@H](O)C[C@@H](O)CC[C@H](O)[C@@H](O)C[C@@H](O)CC(=O)O[C@H]1C)C[C@H](O)[C@H]2C(=O)O", "strain": "AB16.4", "read by": "broth dilution", "read-out": "inhibition", "tested at": "1 µg/mL", "value": "0%"}
{"SMILES": "CC(=O)OC[C@H]1O[C@@H](Sc2nnc(-c3cccnc3)n2/N=C/c2ccc(C)cc2)[C@H](OC(C)=O)[C@@H](OC(C)=O)[C@@H]1OC(C)=O", "read by": "agar diffusion / agar", "read-out": "zone", "tested at": "5 mg/mL", "value": "1–5 mm"}
{"SMILES": "C[C@H]1[C@H](O)[C@@H](C)/C=C/C=C/C=C/C=C/C=C/C=C/C=C/[C@H](O[C@@H]2O[C@H](C)[C@@H](O)[C@H](N)[C@@H]2O)C[C@@H]2O[C@](O)(C[C@@H](O)C[C@@H](O)CC[C@H](O)[C@@H](O)C[C@@H](O)CC(=O)O[C@H]1C)C[C@H](O)[C@H]2C(=O)O", "strain": "156 isolates", "read-out": "MIC90", "value": "1 µg/mL"}
{"SMILES": "Cc1noc(NS(=O)(=O)c2ccc(N)cc2)c1C", "strain": "20 isolates", "read-out": "Geometric mean MIC", "value": ">400 µg/mL"}
{"SMILES": "O=[N+]([O-])c1cc(C[Se]c2nnnn2Cc2ccccc2)cc([N+](=O)[O-])c1", "strain": "231", "read by": "broth dilution", "conditions": "48 h", "read-out": "EC50", "value": ">500 µM"}
{"SMILES": "COc1cc(O)c2c(=O)oc3c(c2c1)C(C)(O)CC3=O", "strain": "CGMCC 3.5835", "read by": "resazurin", "read-out": "EC50", "value": "229 µM"}
{"SMILES": "COc1ccc(NS(=O)(=O)c2ccc(N)cc2)nn1", "strain": "20 isolates", "read-out": "Geometric mean MIC", "value": "59.4 µg/mL"}
{"SMILES": "CCC(C)CC(C)CCCCCCCCC(=O)N[C@H]1C[C@@H](O)[C@H](NCCN)NC(=O)[C@@H]2[C@@H](O)CCN2C(=O)[C@H]([C@H](O)CCN)NC(=O)[C@H]([C@H](O)[C@@H](O)c2ccc(O)cc2)NC(=O)[C@@H]2C[C@@H](O)CN2C(=O)[C@H]([C@@H](C)O)NC1=O", "read-out": "MIC90", "value": "0.06–0.5 µg/mL"}
{"SMILES": "O=C(O)c1cccc(-n2nnnc2SCc2cc([N+](=O)[O-])cc([N+](=O)[O-])c2)c1", "strain": "231", "read by": "broth dilution", "conditions": "48 h", "read-out": "EC50", "value": ">500 µM"}
{"SMILES": "N=C(N)c1ccc(OCCCCCOc2ccc(C(=N)N)cc2)cc1", "strain": "20 isolates", "read-out": "Geometric mean MIC", "value": ">128 µg/mL"}
{"SMILES": "COc1cc(C(=O)O)ccc1O", "read by": "agar", "read-out": "MIC50", "value": ">1000 µg/mL"}
{"SMILES": "C[C@@H](c1nc(-c2ccc(C#N)cc2)cs1)[C@](O)(Cn1cncn1)c1cc(F)ccc1F", "read-out": "MIC90", "value": "0.5–2 µg/mL"}
{"SMILES": "OC[C@H]1O[C@@H](n2nc(-c3cccnc3)n(/N=C/c3ccccc3)c2=S)[C@H](O)[C@@H](O)[C@@H]1O", "read by": "agar diffusion / agar", "read-out": "zone", "tested at": "2.5 mg/mL", "value": "1–5 mm"}
{"SMILES": "Cc1cc2c(C)cc(O)cc2c(=O)o1", "strain": "CGMCC 3.5835", "read by": "resazurin", "read-out": "EC50", "value": ">250 µM"}
{"SMILES": "CC(=O)OC[C@H]1O[C@@H](n2[nH]c(-c3cccnc3)nc2=S)[C@H](OC(C)=O)[C@@H](OC(C)=O)[C@@H]1OC(C)=O", "read by": "agar diffusion / agar", "read-out": "zone", "tested at": "2.5 mg/mL", "value": "1–5 mm"}
{"SMILES": "C=CCc1ccc(O)c(OC)c1", "read by": "agar", "read-out": "MIC50", "value": "49 µg/mL"}
{"SMILES": "CN(C/C=C/C#CC(C)(C)C)Cc1cccc2ccccc12", "strain": "60 isolates", "read-out": "MIC50", "value": ">16 µg/mL"}
{"SMILES": "CCCCCOc1ccc(-c2cc(-c3ccc(C(=O)N[C@H]4C[C@@H](O)[C@@H](O)NC(=O)[C@@H]5[C@@H](O)[C@@H](C)CN5C(=O)[C@H]([C@H](O)CC(N)=O)NC(=O)[C@H]([C@H](O)[C@@H](O)c5ccc(O)c(OS(=O)(=O)O)c5)NC(=O)[C@@H]5C[C@@H](O)CN5C(=O)[C@H]([C@@H](C)O)NC4=O)cc3)no2)cc1", "read-out": "MIC50", "value": "0.015 µg/mL"}
{"SMILES": "CCc1ccc(O)cc1", "read by": "agar", "read-out": "MIC50", "value": "113 µg/mL"}
{"SMILES": "COc1ccc(/C=N/[n+]2c(-c3ccccc3)[nH]n([C@@H]3O[C@H](COC(C)=O)[C@@H](OC(C)=O)[C@H](OC(C)=O)[C@H]3OC(C)=O)c2=S)cc1", "read by": "agar diffusion / agar", "read-out": "zone", "tested at": "1 mg/mL", "value": "0 mm"}
{"SMILES": "C[C@@H](c1ncncc1F)[C@](O)(Cn1cncn1)c1ccc(F)cc1F", "strain": "NFI 4001", "read-out": "MIC", "value": "2 µg/mL"}
{"SMILES": "O=[N+]([O-])c1cc(C[Se]c2nnnn2C2CCCCC2)cc([N+](=O)[O-])c1", "strain": "231", "read by": "broth dilution", "conditions": "48 h", "read-out": "EC50", "value": ">500 µM"}
{"SMILES": "O=C(O)/C=C/c1ccc(O)c(O)c1", "read by": "agar", "read-out": "MIC50", "value": ">1000 µg/mL"}
{"SMILES": "O=S(=O)(O)CCNCl", "strain": "ATCC 16424", "read-out": "MIC90", "value": "37.8 µM"}
{"SMILES": "CCC(C)n1ncn(-c2ccc(N3CCN(c4ccc(OC[C@H]5CO[C@](Cn6cncn6)(c6ccc(Cl)cc6Cl)O5)cc4)CC3)cc2)c1=O", "strain": "NFI 4001", "read-out": "MIC", "value": "1 µg/mL"}
{"SMILES": "CCC(C)n1ncn(-c2ccc(N3CCN(c4ccc(OC[C@H]5CO[C@](Cn6cncn6)(c6ccc(Cl)cc6Cl)O5)cc4)CC3)cc2)c1=O", "read-out": "MIC90", "value": "1–8 µg/mL"}
{"SMILES": "O=[N+]([O-])c1cc(CSc2nnnn2Cc2ccccc2)cc([N+](=O)[O-])c1", "strain": "231", "read by": "broth dilution", "conditions": "48 h", "read-out": "EC50", "value": ">500 µM"}
{"SMILES": "COc1cc(C(C)=O)ccc1O", "read by": "agar", "read-out": "MIC100", "value": "916 µg/mL"}
{"SMILES": "O=[N+]([O-])c1cc(CSc2nnnn2C2CCCCC2)cc([N+](=O)[O-])c1", "strain": "231", "read by": "broth dilution", "conditions": "24 h", "read-out": "EC50", "value": ">500 µM"}
{"SMILES": "O=C(O)c1ccccc1O", "read by": "agar", "read-out": "MIC50", "value": "80 µg/mL"}
{"SMILES": "COc1cc(O)c2c(=O)c3c(C)cc(O)cc3oc2c1", "strain": "CGMCC 3.5835", "read by": "resazurin", "read-out": "EC50", "value": ">250 µM"}
{"SMILES": "CNCCC(Oc1ccc(C(F)(F)F)cc1)c1ccccc1", "strain": "10 clinical isolates", "read-out": "MFC", "value": "39–625 µg/mL"}
{"SMILES": "CC(=O)OC[C@H]1O[C@@H](n2[nH]c(-c3ccccc3)[n+](/N=C/c3ccc(C)cc3)c2=S)[C@H](OC(C)=O)[C@@H](OC(C)=O)[C@@H]1OC(C)=O", "read by": "agar diffusion / agar", "read-out": "zone", "tested at": "5 mg/mL", "value": "1–5 mm"}
{"SMILES": "COc1cc(O)c2c(c1)-c1cc(O)c(O)cc1COC2=O", "strain": "CGMCC 3.5835", "read by": "resazurin", "read-out": "EC50", "value": ">250 µM"}

For reference, 2 entries again:

SMILES | strain | read by | conditions | read-out | tested at | value
O=C(O)c1ccccc1O | - | agar | - | MIC50 | - | 80 µg/mL
CC(=O)OC[C@H]1O[C@@H](Sc2nnc(-c3cccnc3)n2/N=C/c2ccc(Cl)cc2)[C@H](OC(C)=O)[C@@H](OC(C)=O)[C@@H]1OC(C)=O | - | agar diffusion / agar | - | zone | 1 mg/mL | 1–5 mm

a–b is a range or a potency band. ECn is the concentration giving n% inhibition of infection, replication or growth. Zone: diameter of growth inhibition. An empty or dashed field is not shown. Percent inhibition refers to the dose given; in toxicity tests it is the harm to the cells. MIC50, MIC90 and the like: level of inhibition, or share of isolates inhibited.